Experimental data taken from paper PMC12363188 (2025).

How the values were obtained:
[1] = biological target: T1, SARS-CoV-2 spike ectodomain (Se) (SARS-CoV-2, UniProt P0DTC2 14-1213); test: SPR
[2] = biological target: T1, SARS-CoV-2 spike ectodomain (Se); test: SPR; remark: listed apart in the source

B1: Rp-bACE2-D31K recombinant protein (protein)
chain: QSITEDKAKKFLNKFNSEAEDLSYQSSLASWDYNTNISDENVQKMDEAGAKWSAFYEEQSKIAKNYPLEEIQTDIVKRQLQILQQSGSPVLSEDKSKRLNSILNAMSTIYSTGKVCKPNNPQECLLLEPGLDNIMGTSKDYHERLWAWEGWRAEVGKQLRPLYEEYVVLKNEMARGYHYEDYGDYWRRDYETEESSGPGYSRDQLMKDVDRIFTEIKPLYEHLHAYVRAKLMDTYPLHISPTGCLPAHLLGDMWGRFWTNLYPLTVPFGQKPNIDVTDEMVKQGWDANRIFKEAEKFFVSVGLPNMTEGFWNNSMLTEPGDGRKVVCHPTAWDLGKGDFRIKMCTKVTMEDFLTAHHEMGHIQYDMAYASQPYLLRNGANEGFHEAVGEVMSLSVATPKHLKTMGLLSPDFREDDETEINFLLKQALNIVGTLPFTYMLEKWRWMVFKGEIPKEEWMKKWWEMKREIVGVVEPVPHDETYCDPASLFHVANDYSFIRYYTRTIFEFQFHEALCRIAQHNGPLHKCDISNSTDAGKKLHQMLSVGKSQAWTKTLEDIVGSRNMDVGPLLRYFKPLYTWLQEQSRKSYVGWNTDWSPYSD
[1]
  Kd: 75.1 nM
[2]
  koff: 0.0557 s⁻¹
